Data taken from paper PMC11570497 (Nature Plants, 2024).

System: P69B–His
Test: Qcsp8 cleavage by purified P69B-His
Details: 0.5 μg P69B–His; 10 μM Qcsp8; n = 4

Compound: CC(C)[C@H](NC(=O)c1ccc(N=Nc2ccc(N(C)C)cc2)cc1)C(=O)N[C@@H](CCCCN)C(=O)N[C@@H](Cc1c[nH]c2ccccc12)C(=O)N[C@@H](Cc1ccccc1)C(=O)N[C@@H](CC(N)=O)C(=O)N[C@@H](CC(N)=O)C(=O)N[C@@H](C)C(=O)N[C@@H](CCCCN)C(=O)NCCNc1cccc2c(S(=O)(=O)O)cccc12
- cleavage of Qcsp8 by purified P69B–His (fluorescence): not cleaved
